A mixed list of measured activities; the numbers were collected in NIAID ChemDB.

Common to all: host cell toxicity; cells: A549; method: MTT; endpoint: CC50

Neighbouring rows are from separate reports. CCn: concentration that lowers growth or viability of the cells by n%.

smiles,result
Cc1cc(NS(=O)(=O)c2ccc(N3C(=O)CSC3c3c(F)cccc3F)cc2)no1,>100 µg/mL
O=c1c2ccccc2[se]n1-c1ccccc1,15 µg/mL
CCCCSc1n[nH]c(-c2ccc(O)cc2)n1,>100 µg/mL
CC(=O)NS(=O)(=O)c1ccc(NC(=O)CCC[Se][Se]CCCC(=O)Nc2ccc(S(=O)(=O)NC(C)=O)cc2)cc1,234 µg/mL
FC(F)(F)c1ccccc1-c1nc(=S)[nH][nH]1,>100 µg/mL
CCCN1[Se]c2ccccc2NC1=O,2.5 µg/mL
CCCCCCCCCCCCCCCCOP(=O)([O-])OCC[N+](C)(C)Cc1ccccc1,73.2 µM
Oc1ccccc1[Se][Se]c1ccccc1O,7.5 µg/mL
Cc1cc(NS(=O)(=O)c2ccc(N3C(=O)CSC3c3c(Cl)cccc3Cl)cc2)no1,>100 µg/mL
Nc1ccc(-c2nc(=S)[nH][nH]2)cc1,>100 µg/mL
Cc1cc(NS(=O)(=O)c2ccc(N3C(=O)CSC3c3ccc(F)cc3)cc2)no1,>100 µg/mL
CC(C)(C)CC(C)(C)c1ccc(OCCOP(=O)([O-])OCC[N+](C)(C)Cc2ccccc2)cc1,>100 µM
CC(C)NS(=O)(=O)c1nc(-c2ccc(Cl)cc2)n[nH]1,>100 µg/mL
CCCCCCCCCCCCCCCC[N+](C)(C)Cc1ccccc1,0.63 µM
S=c1[nH]nc(-c2ccc(Cl)cc2)s1,>100 µg/mL
O=S(=O)(Nc1ccccc1[Se][Se]c1ccccc1NS(=O)(=O)c1ccccc1)c1ccccc1,30 µg/mL
O=[N+]([O-])c1ccc(-c2n[nH]c(=S)s2)cc1,>100 µg/mL
CCCCCCCCCCCCCCCCOP(=O)([O-])OCCC[N+](C)(C)C,41.5 µM

The last 2 rows once more:

smiles	result
O=[N+]([O-])c1ccc(-c2n[nH]c(=S)s2)cc1	>100 µg/mL
CCCCCCCCCCCCCCCCOP(=O)([O-])OCCC[N+](C)(C)C	41.5 µM